Drawing on ChEMBL document CHEMBL4811225 (J Med Chem, 2021), this text covers IC50 for five compounds.

The chains behind the UniProt entries cited, without tags or fusion partners. Residues count along the entry.
UniProt P12392, 21-495 limits assumed: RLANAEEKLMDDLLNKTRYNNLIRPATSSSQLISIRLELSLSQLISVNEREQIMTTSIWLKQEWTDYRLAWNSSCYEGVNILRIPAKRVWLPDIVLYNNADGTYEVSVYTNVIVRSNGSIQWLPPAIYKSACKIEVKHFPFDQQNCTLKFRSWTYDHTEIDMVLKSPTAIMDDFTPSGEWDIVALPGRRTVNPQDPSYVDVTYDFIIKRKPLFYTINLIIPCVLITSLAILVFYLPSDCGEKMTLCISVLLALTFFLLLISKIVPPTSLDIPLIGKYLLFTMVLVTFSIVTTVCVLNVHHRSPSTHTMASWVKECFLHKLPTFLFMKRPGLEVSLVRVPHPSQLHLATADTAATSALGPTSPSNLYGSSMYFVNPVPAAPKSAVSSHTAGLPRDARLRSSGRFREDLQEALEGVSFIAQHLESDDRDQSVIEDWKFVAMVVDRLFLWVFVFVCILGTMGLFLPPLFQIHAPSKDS
UniProt P43143, 31-493 limits assumed: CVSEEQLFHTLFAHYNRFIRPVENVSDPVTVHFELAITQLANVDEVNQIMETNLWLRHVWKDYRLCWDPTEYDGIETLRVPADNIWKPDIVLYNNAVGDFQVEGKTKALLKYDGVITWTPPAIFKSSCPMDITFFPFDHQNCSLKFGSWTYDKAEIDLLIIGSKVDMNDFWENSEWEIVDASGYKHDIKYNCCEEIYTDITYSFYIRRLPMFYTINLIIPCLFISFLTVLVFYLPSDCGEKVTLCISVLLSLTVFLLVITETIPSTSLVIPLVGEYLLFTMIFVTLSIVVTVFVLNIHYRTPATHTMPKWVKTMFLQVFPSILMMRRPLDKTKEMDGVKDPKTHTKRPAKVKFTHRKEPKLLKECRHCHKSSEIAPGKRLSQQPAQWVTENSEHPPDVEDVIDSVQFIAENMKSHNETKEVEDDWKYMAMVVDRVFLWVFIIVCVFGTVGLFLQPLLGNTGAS
UniProt P04757, 26-499 limits assumed: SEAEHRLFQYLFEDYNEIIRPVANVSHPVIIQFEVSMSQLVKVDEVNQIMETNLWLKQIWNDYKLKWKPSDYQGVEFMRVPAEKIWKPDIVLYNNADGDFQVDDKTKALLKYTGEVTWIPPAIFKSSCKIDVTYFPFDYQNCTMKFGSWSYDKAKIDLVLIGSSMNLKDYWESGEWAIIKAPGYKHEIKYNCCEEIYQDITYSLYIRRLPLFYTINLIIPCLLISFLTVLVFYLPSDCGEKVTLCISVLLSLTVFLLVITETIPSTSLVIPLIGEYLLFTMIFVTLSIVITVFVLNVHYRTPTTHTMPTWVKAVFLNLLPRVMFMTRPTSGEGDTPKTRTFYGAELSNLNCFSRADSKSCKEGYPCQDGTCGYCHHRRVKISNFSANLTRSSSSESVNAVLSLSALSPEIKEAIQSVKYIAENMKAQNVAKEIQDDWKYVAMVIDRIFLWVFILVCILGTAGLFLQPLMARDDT
UniProt P30926, 22-498 limits assumed: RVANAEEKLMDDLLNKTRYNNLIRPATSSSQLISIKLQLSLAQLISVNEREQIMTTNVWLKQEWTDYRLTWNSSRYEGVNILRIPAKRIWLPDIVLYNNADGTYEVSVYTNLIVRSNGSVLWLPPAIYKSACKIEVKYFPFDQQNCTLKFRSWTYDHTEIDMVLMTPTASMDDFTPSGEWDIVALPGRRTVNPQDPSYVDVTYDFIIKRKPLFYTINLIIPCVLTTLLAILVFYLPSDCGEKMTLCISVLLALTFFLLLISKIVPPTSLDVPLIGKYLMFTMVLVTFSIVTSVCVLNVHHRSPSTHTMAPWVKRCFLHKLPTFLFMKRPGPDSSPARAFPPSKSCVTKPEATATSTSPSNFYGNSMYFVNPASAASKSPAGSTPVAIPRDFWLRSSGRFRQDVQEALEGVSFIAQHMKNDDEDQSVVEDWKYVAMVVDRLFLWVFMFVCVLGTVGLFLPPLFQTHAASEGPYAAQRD
UniProt P32297, 32-505 limits assumed: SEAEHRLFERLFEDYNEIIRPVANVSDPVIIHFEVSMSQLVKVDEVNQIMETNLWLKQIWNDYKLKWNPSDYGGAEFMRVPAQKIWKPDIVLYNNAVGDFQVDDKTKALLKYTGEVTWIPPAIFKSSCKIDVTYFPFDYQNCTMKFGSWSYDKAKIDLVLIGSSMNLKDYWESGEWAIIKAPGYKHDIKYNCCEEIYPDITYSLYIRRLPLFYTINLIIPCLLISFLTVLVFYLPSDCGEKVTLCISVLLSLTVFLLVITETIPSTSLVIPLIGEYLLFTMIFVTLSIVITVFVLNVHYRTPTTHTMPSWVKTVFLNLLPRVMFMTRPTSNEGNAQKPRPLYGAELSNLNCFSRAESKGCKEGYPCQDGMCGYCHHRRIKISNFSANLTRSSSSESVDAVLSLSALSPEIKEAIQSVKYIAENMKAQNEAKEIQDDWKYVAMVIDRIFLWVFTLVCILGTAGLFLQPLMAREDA
UniProt Q15825, 26-494 limits assumed: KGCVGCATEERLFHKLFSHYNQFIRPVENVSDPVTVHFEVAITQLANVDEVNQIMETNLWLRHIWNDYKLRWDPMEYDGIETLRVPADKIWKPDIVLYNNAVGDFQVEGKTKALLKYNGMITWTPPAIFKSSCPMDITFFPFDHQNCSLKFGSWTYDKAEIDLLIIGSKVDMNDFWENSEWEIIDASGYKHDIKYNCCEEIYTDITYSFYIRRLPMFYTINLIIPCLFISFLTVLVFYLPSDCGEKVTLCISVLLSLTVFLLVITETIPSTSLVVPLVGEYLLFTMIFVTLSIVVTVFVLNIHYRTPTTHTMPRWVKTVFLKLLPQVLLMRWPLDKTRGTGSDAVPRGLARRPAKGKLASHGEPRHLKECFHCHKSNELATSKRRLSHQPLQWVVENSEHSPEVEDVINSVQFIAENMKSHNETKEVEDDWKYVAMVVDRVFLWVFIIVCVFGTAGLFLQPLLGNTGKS
UniProt P09483, 31-630 limits assumed: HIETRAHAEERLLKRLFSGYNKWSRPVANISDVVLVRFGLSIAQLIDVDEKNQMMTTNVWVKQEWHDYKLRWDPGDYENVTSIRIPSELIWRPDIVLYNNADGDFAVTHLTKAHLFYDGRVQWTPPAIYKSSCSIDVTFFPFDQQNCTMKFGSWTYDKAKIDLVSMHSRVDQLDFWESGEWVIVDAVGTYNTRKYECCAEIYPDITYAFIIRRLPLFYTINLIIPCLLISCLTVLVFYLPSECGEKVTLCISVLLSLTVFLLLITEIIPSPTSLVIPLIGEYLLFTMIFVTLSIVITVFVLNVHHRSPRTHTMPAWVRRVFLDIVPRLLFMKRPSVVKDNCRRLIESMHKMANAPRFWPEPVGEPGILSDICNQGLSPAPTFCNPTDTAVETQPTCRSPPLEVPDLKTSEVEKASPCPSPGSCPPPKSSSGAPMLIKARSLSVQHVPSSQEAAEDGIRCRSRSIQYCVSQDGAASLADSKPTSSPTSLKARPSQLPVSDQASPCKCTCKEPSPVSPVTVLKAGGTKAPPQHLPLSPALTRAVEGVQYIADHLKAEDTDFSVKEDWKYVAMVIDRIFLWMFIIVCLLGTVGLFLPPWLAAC
UniProt P12390, 25-500 limits assumed: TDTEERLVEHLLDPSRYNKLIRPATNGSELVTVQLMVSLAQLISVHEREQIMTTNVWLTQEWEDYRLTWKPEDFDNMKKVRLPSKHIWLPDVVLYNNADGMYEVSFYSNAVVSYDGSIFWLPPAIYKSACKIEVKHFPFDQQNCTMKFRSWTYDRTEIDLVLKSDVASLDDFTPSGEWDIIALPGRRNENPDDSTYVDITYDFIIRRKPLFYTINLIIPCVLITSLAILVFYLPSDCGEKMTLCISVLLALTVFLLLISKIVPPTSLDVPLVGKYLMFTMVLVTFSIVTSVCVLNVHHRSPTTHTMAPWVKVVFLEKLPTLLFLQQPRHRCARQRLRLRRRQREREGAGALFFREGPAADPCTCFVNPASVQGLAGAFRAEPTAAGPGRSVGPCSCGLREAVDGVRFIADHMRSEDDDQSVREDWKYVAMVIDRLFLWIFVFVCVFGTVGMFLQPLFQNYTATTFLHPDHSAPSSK
UniProt P12391, 31-464 limits assumed: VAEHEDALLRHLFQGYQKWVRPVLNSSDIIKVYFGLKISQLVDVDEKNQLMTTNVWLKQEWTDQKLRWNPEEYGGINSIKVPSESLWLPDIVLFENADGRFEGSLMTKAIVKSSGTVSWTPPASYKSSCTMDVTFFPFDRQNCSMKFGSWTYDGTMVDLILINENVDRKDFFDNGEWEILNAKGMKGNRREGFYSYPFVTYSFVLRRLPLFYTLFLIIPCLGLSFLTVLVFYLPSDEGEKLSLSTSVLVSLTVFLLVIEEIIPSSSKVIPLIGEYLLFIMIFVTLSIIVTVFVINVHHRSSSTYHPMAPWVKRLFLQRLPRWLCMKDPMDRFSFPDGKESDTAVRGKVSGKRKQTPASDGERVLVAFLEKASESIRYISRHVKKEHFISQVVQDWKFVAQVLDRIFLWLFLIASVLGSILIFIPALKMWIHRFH
UniProt Q05941, 23-502 limits assumed: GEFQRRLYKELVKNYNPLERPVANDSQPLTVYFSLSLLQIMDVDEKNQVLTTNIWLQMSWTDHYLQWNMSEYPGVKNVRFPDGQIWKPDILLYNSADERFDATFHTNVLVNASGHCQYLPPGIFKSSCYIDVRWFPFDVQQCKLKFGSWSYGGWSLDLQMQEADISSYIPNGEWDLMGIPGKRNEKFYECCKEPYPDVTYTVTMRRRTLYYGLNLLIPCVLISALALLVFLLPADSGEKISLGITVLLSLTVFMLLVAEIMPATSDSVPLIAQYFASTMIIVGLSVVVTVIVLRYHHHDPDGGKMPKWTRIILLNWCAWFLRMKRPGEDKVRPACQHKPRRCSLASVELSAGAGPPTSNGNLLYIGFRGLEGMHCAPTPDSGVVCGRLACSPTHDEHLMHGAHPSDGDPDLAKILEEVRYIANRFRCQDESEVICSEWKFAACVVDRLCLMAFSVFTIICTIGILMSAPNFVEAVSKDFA

Molecules are shown by their SMILES.

What all share (settings): oocyte
The target in assay [1] is Neuronal acetylcholine receptor subunit alpha-6/beta-4 (Rattus norvegicus, UniProt P12392+P43143).
Assay [2] concerns the target Nicotinic acetylcholine receptor alpha6/alpha3/beta4 (Rattus norvegicus, UniProt P04757+P12392+P43143).
Assay [3] concerns the target Nicotinic acetylcholine receptor alpha6/alpha3/beta4 (Homo sapiens, UniProt P30926+P32297+Q15825).
Assay [4] concerns the target Neuronal acetylcholine receptor; alpha4/beta2 (Rattus norvegicus, UniProt P09483+P12390). Description: Inhibition of rat alpha4beta2 nAChR expressed in Xenopus laevis oocytes assessed as inhibition of acetylcholine-induced current response by two-electrode voltage-clamp method.
In assay [5] the target is Neuronal acetylcholine receptor; alpha4/beta4 (Rattus norvegicus, UniProt P09483+P12392). Description: Inhibition of rat alpha4beta4 nAChR expressed in Xenopus laevis oocytes assessed as inhibition of acetylcholine-induced current response by two-electrode voltage-clamp method.
Assay [6] deals with Nicotinic acetylcholine receptor alpha6/alpha3/beta2/beta3 (Rattus norvegicus, UniProt P04757+P12390+P12391+P43143). Description: Inhibition of rat alpha6/alpha3beta2beta3 nAChR expressed in Xenopus laevis oocytes assessed as inhibition of acetylcholine-induced current response by two-electrode voltage-clamp method.
The target of assay [7] is Neuronal acetylcholine receptor; alpha3/beta2 (Rattus norvegicus, UniProt P04757+P12390). The experiment in a line: Inhibition of rat alpha3beta2 nAChR expressed in Xenopus laevis oocytes assessed as inhibition of acetylcholine-induced current response by two-electrode voltage-clamp method.
Assay [8] concerns the target Neuronal acetylcholine receptor; alpha3/beta4 (Rattus norvegicus, UniProt P04757+P12392). Description: Inhibition of rat alpha3beta4 nAChR expressed in Xenopus laevis oocytes assessed as inhibition of acetylcholine-induced current response by two-electrode voltage-clamp method.
Assay [9] has as its target Neuronal acetylcholine receptor subunit alpha-7 (Rattus norvegicus, UniProt Q05941). Description: Inhibition of rat alpha7 nAChR expressed in Xenopus laevis oocytes assessed as inhibition of acetylcholine-induced current response by two-electrode voltage-clamp method.

Take `CC(C)C[C@@H]1NC(=O)[C@H](CCC(=O)O)NC(=O)[C@@H]2CCCN2C(=O)[C@H](Cc2cnc[nH]2)NC(=O)[C@H](CC(N)=O)NC(=O)[C@H](C(C)C)NC(=O)[C@H](CC(N)=O)NC(=O)[C@@H]2CSSC[C@H](NC(=O)CN)C(=O)N[C@@H](CSSC[C@@H](C(N)=O)NC1=O)C(=O)N[C@@H](CO)C(=O)N[C@@H](Cc1cnc[nH]1)C(=O)N1CCC[C@H]1C(=O)N[C@@H](C)C(=O)N2`: the half-maximal inhibitory concentration (IC50) in assay [1] worked out at 17.2 nM; in [2] it was 13.4 nM; in [3] it was 2.2 nM.

Take `CC(C)C[C@@H]1NC(=O)[C@H](CCC(=O)O)NC(=O)[C@@H]2CCCN2C(=O)[C@H](Cc2cnc[nH]2)NC(=O)[C@H](CC(N)=O)NC(=O)[C@H](C(C)C)NC(=O)[C@H](CO)NC(=O)[C@@H]2CSSC[C@H](NC(=O)CN)C(=O)N[C@@H](CSSC[C@@H](C(N)=O)NC1=O)C(=O)N[C@@H](CO)C(=O)N[C@@H](Cc1cnc[nH]1)C(=O)N1CCC[C@H]1C(=O)N[C@@H](C(C)C)C(=O)N2`: the IC50 was found to be 27.2 nM in assay [1], 20.9 nM in assay [2] and 3.52 nM in assay [3].

In the case of `CC(C)C[C@@H]1NC(=O)[C@H](CCC(=O)O)NC(=O)[C@@H]2CCCN2C(=O)[C@H](Cc2cnc[nH]2)NC(=O)[C@H](CCCNC(=N)N)NC(=O)[C@H](C(C)C)NC(=O)[C@H](CO)NC(=O)[C@@H]2CSSC[C@H](NC(=O)CN)C(=O)N[C@@H](CSSC[C@@H](C(N)=O)NC1=O)C(=O)N[C@@H](CO)C(=O)N[C@@H](Cc1cnc[nH]1)C(=O)N1CCC[C@H]1C(=O)N[C@@H](C)C(=O)N2`, the concentration for half-maximal inhibition (IC50) in assay [1] came to 23.3 nM; in assay [2] it was 14.7 nM; in assay [3], 2.24 nM.

Consider `CC(C)C[C@@H]1NC(=O)[C@H](C(C)C)NC(=O)[C@H](C)NC(=O)[C@@H]2CSSC[C@H](NC(=O)CN)C(=O)N[C@@H](CSSC[C@@H](C(=O)O)NC(=O)[C@H](Cc3ccc(O)cc3)NC1=O)C(=O)N[C@@H](C)C(=O)N[C@@H]([C@H](C)O)C(=O)N1C[C@H](O)C[C@H]1C(=O)N1CCC[C@H]1C(=O)N2`, for which the IC50 in assay [4] is over 10000 nM; in assay [5], over 10000 nM; in [6], 58.1 nM; in [7] it was over 10000 nM; in [8] it was 1200 nM; in [2], 58.1 nM. Moreover, the 50% inhibitory concentration (IC50) in assay [9] is over 10000 nM.

With `CC[C@H](C)[C@@H]1NC(=O)[C@H](CCC(=O)O)NC(=O)[C@@H]2CCCN2C(=O)[C@H](Cc2cnc[nH]2)NC(=O)[C@H](CC(N)=O)NC(=O)[C@H](C(C)C)NC(=O)[C@H](CO)NC(=O)[C@@H]2CSSC[C@H](NC(=O)CN)C(=O)N[C@@H](CSSC[C@@H](C(N)=O)NC1=O)C(=O)N[C@@H](CO)C(=O)N[C@@H](Cc1cnc[nH]1)C(=O)N1CCC[C@H]1C(=O)N[C@@H](C)C(=O)N2`, the half-inhibitory concentration (IC50) in [1] was 49.7 nM; in assay [2], 113 nM; in assay [3] it was 2.84 nM.
